Results of unrelated studies side by side (data: NIAID ChemDB).

Shared fields: tests in culture; species: Candida albicans; endpoint: MIC

Two numbers with a dash give a range or band. An empty or dashed field is not shown. Rows are shuffled and stem from different studies.

| smiles | strain or isolate | method | conditions | value |
|---|---|---|---|---|
| Cc1c(O)cccc1C(=O)N[C@@H](CSc1ccccc1)[C@H](O)CN1C[C@H]2CCCC[C@H]2C[C@H]1C(=O)NC(C)(C)C | I106A | - | - | 64 µg/mL |
| CC(C)=CCCC(C)C1CCC2C3CCC4C(CCC(OC(=O)/C=C/c5ccccc5)C4(C)C)C3CCC12C | ATCC 9002 | XTT / absorbance | - | 512 µg/mL |
| C[C@@H](c1ncncc1F)[C@](O)(Cn1cncn1)c1ccc(F)cc1F | Isolate 580 | - | - | 0.03 µg/mL |
| CCn1c(SCC(=O)c2ccc(Br)cc2)nc2c(sc(=S)n2C)c1=O | ATCC 90018 | - | - | 128 µg/mL |
| CNC1C(C)OC(O[C@H]2c3cc(C)c(C(=O)N[C@@H](CO)C(=O)O)c(O)c3-c3c(cc4c(c3O)C(=O)c3cc(OC)cc(O)c3C4=O)[C@@H]2O)C(O)C1OC1OCC(O)C(O)C1O | IAM4888 | - | - | 6.3 µg/mL |
| O=C(Nc1ccc(Cl)c(Cl)c1)c1ncccc1S | ATCC 44859 | - | - | >250 µM |
| Cc1nc([N+](=O)[O-])cn1CCc1nc(Nc2ccc(Cl)cc2)n[nH]1 | - | - | - | 500 µg/mL |
| CC(/C=C/C=C(\C)C(O)C(C)C(=O)O[C@H]1C[C@@H](C)C=C2C=C[C@]3(C)O[C@@H](O)CC(=O)[C@]3(C)[C@H]21)=C\C=C\C(=O)O | AC3414 | - | - | 0.78 µg/mL |
| c1ccc(Nc2n[nH]c(CCn3cnc4ccccc43)n2)cc1 | - | - | - | 500 µg/mL |
| CN1C(=O)CSc2cc(C(Cn3cncn3)C(O)Cn3cncn3)ccc21 | CA6 | - | - | >250 µg/mL |
| CO[C@H]1C[C@@H]2CC[C@@H](C)[C@@](O)(O2)C(=O)C(=O)N2CCCC[C@H]2C(=O)O[C@H]([C@H](C)C[C@@H]2CC[C@@H](C(=O)ON(C)C)[C@H](OC)C2)CC(=O)[C@H](C)/C=C(\C)[C@@H](O)[C@@H](OC)C(=O)[C@H](C)C[C@H](C)CCCC/C=C/1C | 442 | - | - | 50 µg/mL |
| CN1C(=O)CSc2cc(C(Cn3ccnc3)OCc3ccc(Cl)cc3Cl)ccc21 | CA6 | - | - | >250 µg/mL |
| O=C(Nc1ccc(Br)cc1)c1ccccc1O | ATCC 44859 | - | - | 15.63 µM |
| CN1C(=O)CSc2cc(C(O)Cn3cncn3)ccc21 | CA6 | - | - | >250 µg/mL |
| CO[C@H]1C[C@@H]2CC[C@@H](C)[C@@](O)(O2)C(=O)C(=O)N2CCCC[C@H]2C(=O)O[C@H]([C@H](C)C[C@@H]2CC[C@@H](C(=O)ON3CCCCC3)[C@H](OC)C2)CC(=O)[C@H](C)/C=C(\C)[C@@H](O)[C@@H](OC)C(=O)[C@H](C)C[C@H](C)CCCC/C=C/1C | 579A | - | - | >100 µg/mL |
| Cn1c(SCC(=O)c2ccc(Br)cc2)nc2c(sc(=S)n2C)c1=O | ATCC 90018 | - | - | 256 µg/mL |
| CN1CCC[C@H]1CCCCCCCCCc1ccccc1 | IP4872 | - | - | 25 µg/mL |
| Cc1ccc(C2=NN(c3ccccc3)C(c3nnc4c5ccccc5c(=O)[nH]n34)C2)cc1 | - | - | - | >200 µg/mL |
| CO[C@@H]1C[C@H](C[C@@H](C)[C@@H]2CC(=O)[C@H](C)/C=C(\C)[C@@H](O)[C@@H](OC)C(=O)[C@H](C)C[C@H](C)/C=C/C=C/C=C(\C)[C@H](N(OC)C(=O)N(C)C)C[C@@H]3CC[C@@H](C)[C@@](O)(O3)C(=O)C(=O)N3CCCC[C@H]3C(=O)O2)CC[C@H]1C(=O)ON(C)O | 442 | - | - | >100 µg/mL |
| C[C@H]1[C@H](O)[C@@H](C)/C=C/C=C/C=C/C=C/C=C/C=C/C=C/[C@H](O[C@@H]2O[C@H](C)[C@@H](O)[C@H](N)[C@@H]2O)C[C@@H]2O[C@](O)(C[C@@H](O)C[C@@H](O)CC[C@H](O)[C@@H](O)C[C@@H](O)CC(=O)O[C@H]1C)C[C@H](O)[C@H]2C(=O)O | M27587 | - | - | <0.06 µg/mL |
| CC(C(Sc1ccccc1C(=O)O)c1ccccc1)[N+](=O)[O-] | ATCC64550 | - | - | 15.6 µg/mL |
| O=[N+]([O-])c1cn(CCc2nc(Nc3ccccc3)n[nH]2)cn1 | - | - | - | 500 µg/mL |
| CC(C(Sc1ccccc1C(=O)O)c1ccc(N(C)C)cc1)[N+](=O)[O-] | ATCC64550 | - | - | 15.6 µg/mL |
| Cc1ccc(Nc2n[nH]c(CCn3cnc([N+](=O)[O-])c3)n2)cc1 | - | - | - | 500 µg/mL |
| C/C(=N\NC(=S)Nc1ccc(I)cc1)c1ccccn1 | ATCC 10231 | broth dilution | - | 10.7 µM |
| Cc1ccc(C2=NN(c3ccc(S(N)(=O)=O)cc3)C(c3nnc4c5ccccc5c(=O)[nH]n34)C2)cc1 | - | - | - | >200 µg/mL |
| O=C1C2=C(OC(CI)C2)C(=O)c2ccccc21 | Clinical isolate | broth dilution | - | 12 µg/mL |
| CCCCCCCCCCCOC(=O)c1cc(O)c(O)c(O)c1 | - | - | - | >400 µg/mL |
| COc1cccc(OCC(=O)c2ccccc2)c1 | ATCC 10231 | broth dilution | 48 h | >125 µg/mL |
| COc1cc(C(Sc2ccccc2C(=O)O)C(C)[N+](=O)[O-])ccc1O | ATCC64550 | - | - | 15.6 µg/mL |
| Cc1ccc(C(=O)CSc2nc3c(sc(=S)n3C)c(=O)n2C)cc1 | ATCC 90018 | - | - | 256 µg/mL |
| COc1cc2oc(-c3ccc(O)cc3)cc(=O)c2c(O)c1Oc1ccc(-c2cc(=O)c3c(O)cc(O)cc3o2)cc1 | TM 1768 | broth dilution | - | 18.11 µM |
| C=C1/C=C(\C)[C@H](CC)OC(=O)[C@H](C)C(=O)C(O)(CO)C/C(OC)=C/[C@@H](C)C1 | MY1055 | - | - | 4 µg/mL |
| COc1cc2c(c(O)c1C)C(=O)c1cc3c(c(O)c1C2=O)-c1c(cc(C)c(C(=O)NC(C)C(=O)O)c1OC)[C@H](OC1OC(C)C(N(C)C)C(OC2OCC(O)C(O)C2O)C1O)[C@H]3O | A9540 | - | - | >100 µg/mL |
| Cc1ccc(Nc2n[nH]c(CCn3cc([N+](=O)[O-])nc3C)n2)cc1 | - | - | - | 500 µg/mL |
| COc1ccc(NC(=O)c2ccccc2O)cc1 | ATCC 44859 | - | - | >500 µM |
| Cc1ccc(C2=NNC(c3nnc4c5ccccc5c(=O)[nH]n34)C2)cc1 | - | - | - | >200 µg/mL |
| O=C(COc1ccccc1)c1ccccc1 | ATCC 10231 | broth dilution | 48 h | >125 µg/mL |
| Cn1cnc2c(sc(=S)n2C)c1=O | ATCC 90018 | - | - | 4 µg/mL |
| O=C(COc1ccc(F)cc1)c1ccccc1 | ATCC 10231 | broth dilution | 48 h | >125 µg/mL |
| CCn1c(SCC(=O)c2ccc(C)cc2)nc2c(sc(=S)n2C)c1=O | ATCC 90018 | - | - | ≥512 µg/mL |
| CCC(C)CC(C)CCCCCCCCC(=O)N[C@H]1C[C@@H](O)[C@H](NCCN)NC(=O)[C@@H]2[C@@H](O)CCN2C(=O)[C@H]([C@H](O)CCN)NC(=O)[C@H]([C@H](O)[C@@H](O)c2ccc(O)cc2)NC(=O)[C@@H]2C[C@@H](O)CN2C(=O)[C@H]([C@@H](C)O)NC1=O | CA1-R1 | - | - | 2 µg/mL |
| Cc1ccc(C2=NN(C=O)C(c3nnc4c5ccccc5c(=O)[nH]n34)C2)cc1 | - | - | - | >200 µg/mL |
| Cc1ccc(NC(=O)c2ncccc2S)cc1 | ATCC 44859 | - | - | 15.63 µM |
| Cc1ccc(C(C)C)cc1 | M1 | - | - | 0.16–0.32 µg/mL |
| O=C(COc1cccc(F)c1)c1ccccc1 | ATCC 10231 | broth dilution | 24 h | >125 µg/mL |
| CC(C(Sc1ccccc1C(=O)O)c1ccc([N+](=O)[O-])cc1)[N+](=O)[O-] | ATCC64550 | - | - | 15.6 µg/mL |
| Cc1ccc(NC(=O)c2ccccc2O)cc1 | ATCC 44859 | - | - | >250 µM |
| CCC(C)n1ncn(-c2ccc(N3CCN(c4ccc(OC[C@H]5CO[C@](Cn6cncn6)(c6ccc(Cl)cc6Cl)O5)cc4)CC3)cc2)c1=O | ATCC 90018 | - | - | ≤0.0313 µg/mL |
| CN[C@@H]1[C@H](O[C@@H]2OC[C@@H](O)[C@H](O)[C@H]2O)[C@@H](O)[C@H](O[C@H]2c3c(Br)c(C)c(C(=O)N[C@H](C)C(=O)O)c(O)c3-c3c(cc4c(c3O)C(=O)c3cc(OC)cc(O)c3C4=O)[C@@H]2O)O[C@@H]1C | A9540 | - | - | >100 µg/mL |
| CCOc1ccc(C(Sc2ccccc2C(=O)O)C(C)[N+](=O)[O-])cc1 | ATCC64550 | - | - | 15.6 µg/mL |
| CCC(C)CC(C)CCCCCCCCC(=O)N[C@H]1C[C@@H](O)[C@H](NCCN)NC(=O)[C@@H]2[C@@H](O)CCN2C(=O)[C@H]([C@H](O)CCN)NC(=O)[C@H]([C@H](O)[C@@H](O)c2ccc(O)cc2)NC(=O)[C@@H]2C[C@@H](O)CN2C(=O)[C@H]([C@@H](C)O)NC1=O | MY1055 | - | - | 0.5 µg/mL |
| CNC1C(C)OC(O[C@H]2c3cc(C)c(C(=O)NC(C)C(=O)O)c(OC)c3-c3c(cc4c(c3O)C(=O)c3cc(OC)cc(OC)c3C4=O)[C@@H]2O)C(O)C1OC1OCC(O)C(O)C1O | A9540 | - | - | >100 µg/mL |
| COC(=O)/C=C/C(=O)CC[C@H](N)C(N)=O.Cl | ATCC 10231 | - | - | 4 µg/mL |
| CCOc1ccc(C(C[N+](=O)[O-])Sc2ccccc2C(=O)O)cc1 | ATCC64550 | - | - | 3.9 µg/mL |
| O=C(Nc1ccc(Cl)cc1)c1ncccc1O | ATCC 44859 | - | - | 62.5 µM |
| CN1C(=O)CSc2cc(C(Cn3cncn3)C(O)Cn3ccnc3)ccc21 | CA6 | - | - | >250 µg/mL |
| Cc1cc2c(c(O)c1C(=O)NCC(=O)O)-c1c(cc3c(c1O)C(=O)c1cc(OCC(=O)O)cc(O)c1C3=O)[C@H](O)[C@H]2O[C@@H]1O[C@H](C)[C@H](O)[C@H](O[C@@H]2OC[C@@H](O)[C@H](O)[C@H]2O)[C@H]1O | A9540 | - | - | 50 µg/mL |
| O/N=C(/COc1cccc(Cl)c1)c1ccccc1 | ATCC 10231 | broth dilution | 24 h | 125 µg/mL |
| C[C@H](N)C(=O)N[C@@H](C(=O)O)n1cc(F)c(=O)[nH]c1=O | 3153A | - | - | >100 µg/mL |
| COc1ccc(OCC(=O)c2ccccc2)cc1 | ATCC 10231 | broth dilution | 24 h | >125 µg/mL |
| Cc1ccc(C(C[N+](=O)[O-])Sc2ccccc2C(=O)O)cc1 | ATCC64550 | - | - | 3.9 µg/mL |
| CO[C@H]1/C=C/O[C@@]2(C)Oc3c(C)c(O)c4c(O)c(c(/C=N/N=c5\sc6ccccc6n5C)c(O)c4c3C2=O)NC(=O)/C(C)=C\C=C\[C@H](C)[C@H](O)[C@@H](C)[C@@H](O)[C@@H](C)[C@H](OC(C)=O)[C@@H]1C | 3147 | - | - | >100 µg/mL |

5 of the rows above, restated:

| smiles | strain or isolate | method | conditions | value |
|---|---|---|---|---|
| CCOc1ccc(C(Sc2ccccc2C(=O)O)C(C)[N+](=O)[O-])cc1 | ATCC64550 | - | - | 15.6 µg/mL |
| CCC(C)CC(C)CCCCCCCCC(=O)N[C@H]1C[C@@H](O)[C@H](NCCN)NC(=O)[C@@H]2[C@@H](O)CCN2C(=O)[C@H]([C@H](O)CCN)NC(=O)[C@H]([C@H](O)[C@@H](O)c2ccc(O)cc2)NC(=O)[C@@H]2C[C@@H](O)CN2C(=O)[C@H]([C@@H](C)O)NC1=O | MY1055 | - | - | 0.5 µg/mL |
| O=[N+]([O-])c1cn(CCc2nc(Nc3ccccc3)n[nH]2)cn1 | - | - | - | 500 µg/mL |
| O=C(COc1ccccc1)c1ccccc1 | ATCC 10231 | broth dilution | 48 h | >125 µg/mL |
| COc1ccc(OCC(=O)c2ccccc2)cc1 | ATCC 10231 | broth dilution | 24 h | >125 µg/mL |